PubChem BioAssay AID1259414 – Drosophila RNAi Screening Center, 2018
Assay: 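Fly genes that alter Wolbachia amount inside host cells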 (primary screen). Cell system: Drosophila JW18 cells infected with Wolbachia. Reagent: long dsRNA against Drosophila genes, 0.25 µg dsRNA per well of a 384-well plate. Timing: 5 days. Treatment: cells persistently infected with Wolbachia before knock-down; no added drug. Measurement: 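Imaged fluorescence in situ signal for Wolbachia 23S rRNA per DAPI-counted host cell, given as a robust z-score within each plate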. Scale: Wolbachia per cell robust z: higher = more Wolbachia per host cell than the plate typical. Hit rule: 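Hit when robust z is 1.5 or more, or -1.5 or less, in at least two of three replicates; excludes dsRNAs with several or no targets, genes not expressed in JW18 and well A1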.
The screen tested about 24,000 reagents; this is an unselected part of those with a known target gene and a result. Of all reagents, about 1,210 (5%) got an active call. 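Inactive calls also include excluded dsRNAs with several or no targets, genes unexpressed in JW18, and well A1, regardless of score.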 A number with no mark means an inactive call. A plus sign joins genes that one reagent is predicted to hit. No sequences are given here.

target gene	amplicon	Wolbachia per cell robust z, rep 1	Wolbachia per cell robust z, rep 2	Wolbachia per cell robust z, rep 3
SLIRP2	DRSC16363	-2.49	-3.81	-3.21
SLIRP2	DRSC26237	-1.1	-0.34	0.144
CG14237	DRSC23239	0.112	1.18	1.62
RpL22	DRSC18707	1.28	-6.16	1.53
RpL22	DRSC22819	1.57	1.25	-0.825
CG11456	DRSC11665	0.638	0.727	0.342
RhoGAP92B	DRSC14507	-3.76	0.116	1
RhoGAP92B	DRSC15637	0.72	0.347	0.118
OstDelta	DRSC06980	0.48	-1.2	-0.743
OstDelta	DRSC27205	-0.927	-1.22	-0.618
robo2	DRSC00377	1.14	-0.672	-0.817
robo2	DRSC00378	-4.9	-0.123	-0.459
robo2	DRSC00686	-0.0861	-0.829	-0.625
robo2	DRSC00691	0.53	0.661	0.679
bigmax	DRSC15481	0.178	-0.118	-0.238
bigmax	DRSC27542	-0.321	1.19	-0.178
Tsp33B	DRSC02418	0.468	1.04	-1.15
Tsp33B	DRSC28982	0.405	0.0656	-0.216
mRpS28	DRSC06939	-3.71	0.787	0.248
CG18549	DRSC15347	0.676	0.932	0.77
CG18549	DRSC28847	0.402	0.362	0.388
Sfp33A3	DRSC40633	-1.03	-0.326	-0.25
Mgat3	DRSC01305	-0.91	-0.952	-1.53
Mgat3	DRSC29398	0.0686	-0.563	-0.467
CG30484	DRSC05457	-0.342	1.28	0.866
CG18081	DRSC10294	0.832	0.0889	-0.0252
CG18081	DRSC25758	-0.392	0.167	-0.931
CG11893	DRSC14429	0.68	-1.83	0.51
CG11893	DRSC29725	-2.29 (active)	-0.392	-1.67
CG6283	DRSC16009	-3.89	-1.83	-0.279
CG6283	DRSC29913	0.267	-0.249	-0.00205
140up	DRSC12634	-3.28 (active)	-2.64	-0.308
140up	DRSC28711	-1.15	0.0981	1.01
Acbp3	DRSC11022	-2.41	-0.207	-1.07
Acbp3	DRSC25356	-0.0204	0.12	0.161
CG17996 + Tsen2	DRSC02650	-0.899	0.00426	-0.883
adp	DRSC06916	-0.194	0.128	-0.649
Duox	DRSC27209	-0.292	0.447	-0.255
CG44247 + Atf-2	DRSC04130	0.851	-7.48	-0.657
CG44247 + Atf-2	DRSC04413	-1.33	0.00291	-0.761
CG9536	DRSC03254	-1.1	0.102	0.28
CG9536	DRSC24736	-0.104	0.128	0.278
Dnah3	DRSC08130	-5.5	-4.89	-6.61
Dnah3	DRSC08513	-1.04	-2.51	-0.547
Dnah3	DRSC28789	0.569	-0.311	0.805
CG30016	DRSC05242	1.28	0.378	-7.78
CG4744	DRSC06887	0.101	0.731	-0.0241
CG4744	DRSC28696	-0.398	-0.527	0.0961
CG2889	DRSC18236	0.539	0.0129	1.11
CG34293	DRSC38694	0.67	-0.855	-0.432
asRNA:CR43465 + Ucp4B	DRSC02665	-0.153	-0.781	-2.03
Hsp60D	DRSC02543	1.36	-0.631	0.15
Hsp60D	DRSC29118	0.852	0.744	1.45
RhoGAPp190	DRSC20097	1.05	-2.35	-0.213
RhoGAPp190	DRSC20099	1.67	1.35	-0.301
CG6966	DRSC16156	0.294	0.969	-0.849
CG6966	DRSC24518	1.39	2.05	-0.4
Trxr2	DRSC11900	0.543	0.544	1.01
Trxr2	DRSC25519	0.504	-0.443	-0.769
Lime	DRSC06752	1.25	0.888	0.668
SmydA-8	DRSC22064	-1.64	-0.61	0.943
SmydA-8	DRSC22263	-1.78	-0.59	0.174
wus	DRSC20278	-1.95	0.246	-1.05
CG4988	DRSC02800	0.00749	0.463	-0.291
Idua	DRSC02941	1.15	1.08	-11.2
sNPF-R	DRSC10836	-2.15	-6.28	0.866
TwdlJ	DRSC15812	-4.57	-0.118	-0.555
snoRNA:Me18S-A1374 + Dys	DRSC16232	0.946	-0.718	-1.4

8 consecutive records already listed, quoted:
target gene	amplicon	Wolbachia per cell robust z, rep 1	Wolbachia per cell robust z, rep 2	Wolbachia per cell robust z, rep 3
Dnah3	DRSC28789	0.569	-0.311	0.805
CG30016	DRSC05242	1.28	0.378	-7.78
CG4744	DRSC06887	0.101	0.731	-0.0241
CG4744	DRSC28696	-0.398	-0.527	0.0961
CG2889	DRSC18236	0.539	0.0129	1.11
CG34293	DRSC38694	0.67	-0.855	-0.432
asRNA:CR43465 + Ucp4B	DRSC02665	-0.153	-0.781	-2.03
Hsp60D	DRSC02543	1.36	-0.631	0.15
